US8946224B2, “Substituted [1,2,4]triazolo[4,3-A]pyrazines for medicaments and pharmaceutical compositions” (Redx Pharma Limited, priority 2010, dated 2015)

Amino acid sequences for entries named in this document (tags omitted).
UniProt P03468, whole entry: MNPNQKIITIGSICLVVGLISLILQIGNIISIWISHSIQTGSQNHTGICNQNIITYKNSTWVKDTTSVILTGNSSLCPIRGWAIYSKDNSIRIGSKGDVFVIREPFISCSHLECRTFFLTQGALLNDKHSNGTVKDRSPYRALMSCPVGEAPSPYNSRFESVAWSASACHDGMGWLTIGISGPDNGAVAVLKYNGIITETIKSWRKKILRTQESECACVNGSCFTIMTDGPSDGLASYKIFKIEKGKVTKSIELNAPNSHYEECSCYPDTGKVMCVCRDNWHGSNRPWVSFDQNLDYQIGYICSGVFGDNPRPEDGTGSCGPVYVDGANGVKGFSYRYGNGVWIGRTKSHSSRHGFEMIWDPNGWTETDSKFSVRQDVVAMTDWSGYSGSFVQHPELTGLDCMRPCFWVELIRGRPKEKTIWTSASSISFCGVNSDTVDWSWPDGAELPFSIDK

Target: neuraminidase of oseltamivir-sensitive influenza virus (UniProt P03468)
Experiment: Anti-influenza neuraminidase activity, chemiluminescent substrate NA-XTD (Example 100)
Type: biochemical

CCC(CC)O[C@@H]1C=C(C=O)CC(N)[C@H]1NC(C)=O (some centres unmarked)
EC50: 32 nM
EC90: 290 nM
